In PubChem BioAssay AID651602 (The Scripps Research Institute Molecular Screening Center, 2012):
The list shows a part of the results, in another mix than the full data. Calls of active or inactive are those of the source. Rule as the data show it: active = inhibition above about 11%; inactive = the rest.

Assay: reduced absorbance of E. coli cultures with phage – HTS, RecBCD inhibitor project, primary screen (AID 651602)
Conditions: growth absorbance, at 11.9 µM, hits give high values
In the case of `CP(=O)(Nc1ccc2c(c1)OCCO2)Oc1ccccc1` (stereo not drawn), the inhibition is reported as inactive: 2.22%.
With `O=[N+]([O-])c1cc([N+](=O)[O-])c(C(F)(F)F)c([N+](=O)[O-])c1O` the inhibition was inactive: 0.23%.
In the case of `Cc1ccccc1NP(C)(=O)Nc1ccccc1C`, the inhibition is reported as inactive: 1.19%.
In the case of `CP(=O)(Nc1ccc(SC(F)(F)F)cc1)Oc1ccc(F)cc1` (stereo not drawn), the inhibition is reported as inactive: 1%.
With `CCOP(=O)(CC)OCC` the inhibition was inactive: 3.05%.
For `CCOP(C)(=S)SCC(=O)NC(C)(CC)C(=O)O` (stereo not drawn), the inhibition was inactive: 2.01%.
For `CP(=O)(Nc1ccc(Cl)cc1)Oc1ccc(F)cc1` (stereo not drawn), the inhibition was inactive: -0.55%.
With `CC(C)(C)c1ccc(OP(C)(=O)O)cc1` the inhibition was inactive: 1.74%.
For `COc1ccccc1OP(C)(=O)Nc1ccccc1Br` (stereo not drawn), the inhibition was inactive: 4.73%.
In the case of `CN(C)C(=O)c1c([N+](=O)[O-])cc([N+](=O)[O-])cc1[N+](=O)[O-]`, the inhibition is reported as inactive: 4.09%.
In the case of `COc1ccc(OP(C)(=O)Nc2ccc(Br)cc2)cc1` (stereo not drawn), the inhibition is reported as inactive: 2.61%.
For `CCN(CC)CC(O)COC(=O)C(O)(c1ccccc1)C1CCCCC1` (stereo not drawn), the inhibition was inactive: 0.93%.
With `CCc1ccc(OP(C)(=O)Nc2cccnc2)cc1` (stereo not drawn) the inhibition was inactive: 1.07%.
For `CP(=O)(Oc1ccccc1)N1CCOC1=O` (stereo not drawn), the inhibition was inactive: 2.38%.
In the case of `O=C(OCCCN1CCCC1)C(O)(c1ccccc1)C1CCCCC1` (stereo not drawn), the inhibition is reported as inactive: -0.84%.
With `COc1ccccc1OP(C)(=O)Nc1c(C)n(C)n(-c2ccccc2)c1=O` (stereo not drawn) the inhibition was inactive: 1.59%.
With `Nc1ccc2c(ccc3cccnc32)n1.O=[N+]([O-])c1cc([N+](=O)[O-])c(O)c([N+](=O)[O-])c1` the inhibition was inactive: -0.08%.
For `CP(=O)(OC12CC3CC(CC(C3)C1)C2)OC12CC3CC(CC(C3)C1)C2`, the inhibition was inactive: 2.81%.
For `CCOC(=O)c1ccc(NP(C)(=O)Oc2ccc(Cl)cc2)cc1` (stereo not drawn), the inhibition was inactive: 2.62%.
In the case of `CP(=O)(OCCOc1ccccc1)OCCOc1ccccc1`, the inhibition is reported as inactive: 1.07%.
In the case of `CCCCCCCCCCCCCCCC1C[N+](C)(C)CCOP(C)(=O)O1` (stereo not drawn), the inhibition is reported as inactive: 4.5%.
In the case of `CP(=O)(Nc1ccc(Cl)cc1Cl)Oc1ccccc1` (stereo not drawn), the inhibition is reported as inactive: -1.62%.
With `Cc1cc(C)cc(OP(C)(=O)Nc2cccc(C(F)(F)F)c2)c1` (stereo not drawn) the inhibition was inactive: 2.73%.
With `O=C1C(O)=C([N+](=O)[O-])C(=O)C(O)=C1[N+](=O)[O-]` the inhibition was inactive: 1.17%.
For `COc1ccc(OP(C)(=O)Nc2ccccc2Br)cc1` (stereo not drawn), the inhibition was inactive: 3.24%.
With `COc1ccccc1OP(C)(=O)Nc1ccc(C)c(C)c1` (stereo not drawn) the inhibition was inactive: 2.23%.
With `O=[N+]([O-])c1cc([N+](=O)[O-])c(Nc2ccccn2)c([N+](=O)[O-])c1` the inhibition was inactive: 2.5%.
With `Cc1c(NP(C)(=O)Oc2ccc(C(C)C)cc2)c(=O)n(-c2ccccc2)n1C` (stereo not drawn) the inhibition was inactive: 0.92%.
For `CCc1ccc(OP(C)(=O)O)cc1`, the inhibition was inactive: 1.56%.
For `COc1ccccc1OP(C)(=O)Nc1ccc(C)cc1C` (stereo not drawn), the inhibition was inactive: 0%.
With `CP(=O)(Nc1ccccn1)Oc1ccccc1` (stereo not drawn) the inhibition was inactive: -1.56%.
For `COc1ccccc1OP(C)(=O)Nc1ccc(Br)cc1` (stereo not drawn), the inhibition was inactive: 2.47%.
In the case of `CN(C)CCOC(=O)C(O)(c1ccccc1)C1CCCC1` (stereo not drawn), the inhibition is reported as inactive: 1.14%.
For `COc1ccc(OP(C)(=O)Nc2ccccn2)cc1` (stereo not drawn), the inhibition was inactive: 3.28%.
In the case of `COc1ccccc1-c1ccccn1.O=[N+]([O-])c1cc([N+](=O)[O-])c(O)c([N+](=O)[O-])c1`, the inhibition is reported as inactive: 2.96%.
In the case of `CCN(CC)CCCOC(=O)C(O)(c1ccccc1)c1ccccc1`, the inhibition is reported as inactive: 1.66%.
For `CCOC(=O)c1ccc(NP(C)(=O)Oc2ccccc2)cc1` (stereo not drawn), the inhibition was inactive: 3.95%.
For `Cc1ccc(NP(C)(=O)Oc2ccccc2)c(C)c1` (stereo not drawn), the inhibition was inactive: 1.42%.
In the case of `COc1ccccc1OP(C)(=O)Nc1ccc(C)cc1` (stereo not drawn), the inhibition is reported as inactive: 0.83%.
For `COc1ccc(OP(C)(=O)Nc2cccc(F)c2)cc1` (stereo not drawn), the inhibition was inactive: 2.91%.
With `COc1ccccc1OP(C)(=O)Nc1cc(Cl)ccc1C` (stereo not drawn) the inhibition was inactive: 2.79%.
With `Cc1cc(C)cc(OP(C)(N)=O)c1` (stereo not drawn) the inhibition was inactive: 1.08%.
In the case of `O=[N+]([O-])c1cc([N+](=O)[O-])c(Nc2cccnc2)c([N+](=O)[O-])c1`, the inhibition is reported as inactive: -3.27%.
For `Cc1cccc(C)c1OP(C)(N)=O` (stereo not drawn), the inhibition was inactive: 2.59%.
In the case of `CC(C)(C)c1ccc(OP(C)(=O)Nc2ccc(SC(F)(F)F)cc2)cc1` (stereo not drawn), the inhibition is reported as inactive: 3.41%.
In the case of `O=[N+]([O-])c1ccc2c(c1)C=Nc1ccccc1O2`, the inhibition is reported as inactive: 4.62%.
In the case of `CP(=S)(Nn1cnnc1)Oc1ccccc1` (stereo not drawn), the inhibition is reported as inactive: 0.88%.
With `COc1ccccc1OP(C)(=O)Nc1ccccc1` (stereo not drawn) the inhibition was inactive: 5.17%.
With `CP(=O)(Nc1ccccc1Br)Oc1ccccc1` (stereo not drawn) the inhibition was inactive: 2.93%.
For `CCOP(C)(=S)SCC(=O)NC(C)C(=O)O` (stereo not drawn), the inhibition was inactive: 1.67%.
With `O=[N+]([O-])c1cc([N+](=O)[O-])c(O)c([N+](=O)[O-])c1.c1ccc(Oc2ccncc2)cc1` the inhibition was inactive: -0.23%.
In the case of `CCOC(=O)c1ccc(NP(C)(=O)Oc2ccc(OC)cc2)cc1` (stereo not drawn), the inhibition is reported as inactive: 4.46%.
With `CP(=O)(Nc1ccccn1)Oc1ccc(Cl)cc1` (stereo not drawn) the inhibition was inactive: 0.08%.
With `CP(=O)(Oc1ccccc1)OC(c1ccccc1)C(F)(F)F` (stereo not drawn) the inhibition was inactive: -0.38%.
For `CP(=O)(Nc1ccc(SC(F)(F)F)cc1)Oc1ccc(Cl)cc1` (stereo not drawn), the inhibition was inactive: 0.54%.
For `Cc1cccc(C)c1OP(C)(=O)Nc1ccc(SC(F)(F)F)cc1` (stereo not drawn), the inhibition was inactive: 0.15%.
With `Cc1cc(C)cc(OP(C)(=O)Nc2ccc(SC(F)(F)F)cc2)c1` (stereo not drawn) the inhibition was inactive: 1.03%.
For `CCc1ccc(OP(C)(=O)N2CCN(c3ccc([N+](=O)[O-])cc3)CC2)cc1` (stereo not drawn), the inhibition was inactive: -2.42%.
With `CP(=O)(NC(=O)Nc1ccccc1)Oc1ccccc1` (stereo not drawn) the inhibition was inactive: 3.27%.
For `O=[N+]([O-])c1cc([N+](=O)[O-])c(-c2cnn(-c3ccccc3)c2)c([N+](=O)[O-])c1`, the inhibition was inactive: 3.79%.
With `Cc1nc2ccc3ccccc3c2s1.O=[N+]([O-])c1cc([N+](=O)[O-])c(O)c([N+](=O)[O-])c1` the inhibition was inactive: 0.16%.
For `O=[N+]([O-])c1cc([N+](=O)[O-])c(-n2nnc3ccccc32)c([N+](=O)[O-])c1`, the inhibition was inactive: 3.65%.
In the case of `CN(Cc1cccnc1)C(=O)COc1ccc(Cl)c(Cl)c1.O=[N+]([O-])c1cc([N+](=O)[O-])c(O)c([N+](=O)[O-])c1`, the inhibition is reported as inactive: 4.65%.
In the case of `CN1CCCCC1COC(=O)C1(O)c2ccccc2CCc2ccccc21` (stereo not drawn), the inhibition is reported as inactive: 1.62%.
In the case of `COc1ccccc1OP(C)(=O)Nc1c(C)cccc1C` (stereo not drawn), the inhibition is reported as inactive: 3.09%.
With `CP(=O)(Nc1ccc(SC(F)(F)F)cc1)Oc1ccccc1` (stereo not drawn) the inhibition was inactive: 5.59%.
With `CCCOc1ccc(NP(C)(=O)Oc2ccc(Cl)cc2)cc1` (stereo not drawn) the inhibition was inactive: 5.98%.
In the case of `COc1ccc(-c2ccccn2)cc1.O=[N+]([O-])c1cc([N+](=O)[O-])c(O)c([N+](=O)[O-])c1`, the inhibition is reported as inactive: 2.22%.
In the case of `CCOC(=O)C(CC)C1=NC(C)(C)Cc2ccccc21.O=[N+]([O-])c1cc([N+](=O)[O-])c(O)c([N+](=O)[O-])c1` (stereo not drawn), the inhibition is reported as inactive: 1.66%.
In the case of `O=[N+]([O-])c1cc([N+](=O)[O-])c(Nc2nnnn2CCO)c([N+](=O)[O-])c1`, the inhibition is reported as inactive: -1.19%.
For `CC1=NCCc2c1[nH]c1ccccc21.O=[N+]([O-])c1cc([N+](=O)[O-])c(O)c([N+](=O)[O-])c1`, the inhibition was inactive: 1.4%.
With `O=C(O)c1cccc(Nc2c([N+](=O)[O-])cc([N+](=O)[O-])cc2[N+](=O)[O-])c1` the inhibition was inactive: 1.38%.
For `CP(=O)(Nc1cccc(Br)c1)Oc1ccccc1` (stereo not drawn), the inhibition was inactive: 3.25%.
For `Cc1cc(C)cc(OP(C)(=O)Nc2ccccn2)c1` (stereo not drawn), the inhibition was inactive: 0.24%.
In the case of `Cc1ccc(C)c(NP(C)(=O)Oc2ccccc2)c1` (stereo not drawn), the inhibition is reported as inactive: 2.03%.
In the case of `COc1ccccc1OP(C)(=O)Nc1cccc(Br)c1` (stereo not drawn), the inhibition is reported as inactive: 0%.
In the case of `Cc1cc(C)cc(OP(C)(=O)Nc2ccc(C)cc2C)c1` (stereo not drawn), the inhibition is reported as inactive: 0.23%.
For `CCOC(=O)c1ccc(NP(C)(=O)Oc2cc(C)cc(C)c2)cc1` (stereo not drawn), the inhibition was inactive: 2.45%.
